Compound potency records, mixed from different reports. Data source: NIAID ChemDB in PubChem.

Shared fields: whole-cell or culture tests; species: Mycobacterium tuberculosis

MIC bound: limit read from a one-dose screen. a–b is a range or a potency band. Blank or dashed fields: not listed here. Lines come from different laboratories, so protocols vary. MIC50, MIC90 and the like: level of inhibition, or share of isolates inhibited. Inhibition is in % at the dose shown (toxicity tests: loss of growth or viability). ECn is the concentration giving n% inhibition of infection, replication or growth.

compound	tested at	mutations	strain	method	endpoint	result
C[C@H]1COc2c(N3CCN(C)CC3)c(F)cc3c(=O)c(C(=O)O)cn1c23			23 strains (rifampin- isoniazid-susceptible)		MIC50	0.39 µg/mL
COC(=O)CSc1nnc(-c2ccc([N+](=O)[O-])s2)s1	6.25 µg/mL		H37Rv	resazurin	inhibition	100%
CC(=O)OC1(c2ccccc2)C=CC(=O)C=C1			H37Rv		EC50	>6.25 µg/mL
CCOC(=O)CSc1nnc(-c2ccc([N+](=O)[O-])s2)s1	6.25 µg/mL		H37Rv	resazurin	inhibition	58%
COc1ccc(C(Br)C(Br)C(=O)O)cc1			BCG		MIC	>100 µg/mL
S=c1sc(-c2ccccc2)nc2ccccc12			H37Rv	BACTEC	MIC bound	>12.5 µg/mL
CO[C@H]1/C=C/O[C@@]2(C)Oc3c(C)c(O)c4c(O)c(c5c(c4c3C2=O)NC2(CCN(CC(C)C)CC2)N=5)=NC(=O)/C(C)=C\C=C\[C@H](C)[C@H](O)[C@@H](C)[C@@H](O)[C@@H](C)[C@H](OC(C)=O)[C@@H]1C			H37Rv		MIC	0.035 µg/mL
Cc1c(N2C[C@@H](N)C3(CC3)C2)c(F)c(N)c2c(=O)c(C(=O)O)cn(C3CC3)c12			22 strains (rifampin- isoniazid-resistant)		MIC50	3.13 µg/mL
Cn1cc(NC(=O)c2cc(NC(=O)c3cc(NC=O)cn3C)cn2C)cc1C(=O)NCCC(=N)N			RMP-R		MIC	12.8 µg/mL
COc1ccc(/C=C/C(=O)O)cc1			BCG		MIC	100 µg/mL
NNC(=O)c1ccncc1			H37Rv		MIC90	0.1 µg/mL
COc1cc(-c2nnnn2S(=O)(=O)c2ccc([N+](=O)[O-])cc2)ccc1OCC(O)(Cn1cncn1)c1ccc(Cl)cc1Cl			H37Rv	resazurin	MIC100	3.12 µg/mL
COc1cccc2c1C(=O)c1c(O)c3c(c(O)c1C2=O)C[C@@](O)(/C(C)=N/NC(=O)c1ccc(Cl)c(Cl)c1)C[C@H]3O[C@H]1C[C@H](N)[C@H](O)[C@H](C)O1			PZA-R		MIC	12.5 µg/mL
COC(=O)CN1OCC(N)C1=O					MIC	>2500 µM
CC(=O)OCC1OC(n2c(=S)n(-c3ccccc3)c(=O)c3ccccc32)C(OC(C)=O)C(OC(C)=O)C1OC(C)=O			H37Rv	BACTEC	MIC bound	>12.5 µg/mL
CCOC(=O)C(Cc1ccccc1)NP(=O)(CCC(=O)N1C[C@H](OCC(O)P(=O)(NC(Cc2ccccc2)C(=O)OCC)NC(Cc2ccccc2)C(=O)OCC)[C@H](n2cnc3c(=O)[nH]c(N)nc32)C1)NC(Cc1ccccc1)C(=O)OCC			H37Rv	resazurin / fluorescence	MIC90	14 µM
NNC(=O)c1ccncc1			23 strains (rifampin- isoniazid-susceptible)		MIC50	≤0.05 µg/mL
N#CC1=C([N+](=O)[O-])NC2OC[C@@H](OCc3ccc(OC(F)(F)F)cc3)CN12			wtH37Rv	broth dilution	MIC	>100 µM
C[C@@H]1CN(c2c(F)c(N)c3c(=O)c(C(=O)O)cn(C4CC4)c3c2F)C[C@H](C)N1			20 strains		MIC90	≤0.01 µg/mL
C=CCCCCn1c2ccccc2c2c(C)c3cnccc3c(C)c21			H37Rv	resazurin	MIC	0.78 µg/mL
CC1COc2c(N3CCN(C)CC3)c(F)cc3c(=O)c(C(=O)O)cn1c23			20 strains		MIC90	0.1–0.2 µg/mL
CNn1cc(C(=O)O)c(=O)c2cc(F)c(N3CCN(C)CC3)cc21			22 isolates		MIC50	4 µg/mL
N=C1C=CC(O)(c2nc3ccccc3s2)C(SCC(NC(=O)CCC(N)C(=O)O)C(=O)NCC(=O)O)C1			H37Rv		MIC	>6.25 µg/mL
NC1CON(CC(=O)O)C1=O					MIC	>2500 µM
COc1ccccc1/C=C/C(=O)NN			BCG		MIC	20 µg/mL
CCCCCCCCO[C@H]1O[C@H](CO[C@@H]2[C@@H](OCCCCCCCC)O[C@H](CO)[C@H]2N)[C@@H](O[C@@H]2O[C@H](O)[C@@H](N)[C@@H]2O)[C@@H]1O			H37Rv		EC50	>6.25 µg/mL
NN=C1CCC(=NN)CC1	12.5 µg/mL		H37Rv	BACTEC	inhibition	54%
CCC(S)CCO			H37Rv		MIC	>100 µg/mL
COC1(c2nc3ccc(C)cc3s2)C=CC(=NS(=O)(=O)c2ccc(C)cc2)C=C1			H37Rv		MIC	>6.25 µg/mL
O=C(NCc1ccc(C(F)(F)F)cc1)c1nnc(-c2ccccn2)[nH]c1=O			H37Rv		MIC	16 µg/mL
CCSSC(C)(C)CC			H37Rv		MIC	50 µg/mL
O=C(NCc1cccc(F)c1)c1nnc(-c2ccccn2)[nH]c1=O			H37Rv		MIC	>32 µg/mL
CCSCC(N)C(=O)O			H37Rv		MIC	>100 µg/mL
COc1cc(-c2nnnn2S(=O)(=O)c2ccc(OC(F)(F)F)cc2)ccc1OCC(O)(Cn1cncn1)c1ccc(F)cc1F			H37Rv	resazurin	MIC100	3.12 µg/mL
NNC(=O)/C=C/c1ccccc1Cl			BCG		MIC	20 µg/mL
O=C1C=CC(O)(c2nc3ccccc3[nH]2)C=C1			H37Rv		EC50	<6.25 µg/mL
NC(CCP(=O)(O)CCC1C=CC=CC1)C(=O)O	12.5 µg/mL		H37Rv	BACTEC	inhibition	22%
O=C(NNS(=O)(=O)c1ccc(NC2=CC(=O)c3ccccc3C2=O)cc1)c1ccncc1					MIC	0.03–0.12 µg/mL
COC1(c2nc3ccccc3s2)C=CC(=NS(=O)(=O)c2ccc(C)cc2)C=C1			H37Rv		MIC	>6.25 µg/mL
CCC(CCCN)Nc1cc(OC)cc2cccnc12	12.5 µg/mL		H37Rv	BACTEC	inhibition	9%
CO[C@H]1/C=C/O[C@@]2(C)Oc3c(C)c(O)c4c(=O)c(c5oc6cc(N7CCN(C(C)C)CC7)cc(=O)c6nc5c4c3=C2O)NC(=O)/C(C)=C\C=C\[C@H](C)[C@H](O)[C@@H](C)[C@@H](O)[C@@H](C)[C@H](OC(C)=O)[C@@H]1C			20 strains		MIC90	0.07 µg/mL
CC(C)CC1C(=O)NCCC(NC(=O)C(N)Cc2ccc(O)cc2)C(=O)NC(Cc2ccccc2)C(=O)NC(Cc2ccccc2)NC1=O	6.25 µg/mL		H37Rv	resazurin	inhibition	-10%
Nc1ncnc2c1c(-c1ccc3ccccc3c1)cn2[C@@H]1O[C@H](CO)[C@@H](O)[C@H]1O			Praha 131		EC50	8 µM
O=C1C=CC(O)(c2ccc3ccccc3c2)C=C1			H37Rv		EC50	>6.25 µg/mL
CN(C=O)C(=S)[S][Sb]([S]C(=S)N(C)C=O)[S]c1nc2ccc(N=Nc3ccc(NS(=O)(=O)c4ccc(NC(=O)C(Cl)Cl)cc4)cc3)cc2s1			H37Rv	BACTEC	MIC bound	≤128 µg/mL
CCCCOC(=O)c1ccc2n[nH]nc2c1			H37Ra	visual reading	MIC	200 µM
COc1ccc(/C=C/C(=O)NN)cc1OC			BCG		MIC	5 µg/mL
CO[C@H]1/C=C/O[C@@]2(C)Oc3c(C)c(O)c4c(=O)c(c5oc6cc(N7CCN(CC(C)C)CC7)cc(=O)c6nc5c4c3=C2O)NC(=O)/C(C)=C\C=C\[C@H](C)[C@H](O)[C@@H](C)[C@@H](O)[C@@H](C)[C@H](OC(C)=O)[C@@H]1C			H37Rv		MBC	0.15–0.3 µg/mL
NC1CON(CCOCc2ccccc2)C1=O					MIC	>2500 µM
CO/N=C(\C)c1cccc(F)c1NS(=O)(=O)c1nc2c(F)cnc(OC)n2n1		INH RIF resistant	X59	visual reading	MIC50	1 µM
CCOC(=O)c1nnc(SC)[nH]c1=O			H37Rv	BACTEC	MIC bound	>12.5 µg/mL
Nc1ccc(S(=O)(=O)c2ccc(N)cc2)cc1			H37Rv		MBC	>40 µg/mL
NNC(=O)/C=C/c1ccccc1[N+](=O)[O-]			BCG		MIC	50 µg/mL
Nc1ncnc2c1c(-c1cccc3c1oc1ccccc13)cn2[C@@H]1O[C@H](CO)[C@@H](O)[C@H]1O			Praha 131	broth dilution	MIC	16 µM
O=C(c1ccncc1)N1N=C(c2ccccc2)CC1(O)C(F)(F)F			H37Rv		MIC	18.66 µM
CN1OCC(N)C1=O					MIC	>2500 µM
Nc1ccc(S(=O)(=O)c2ccc(NC3=CC(=O)c4ccccc4C3=O)cc2)cc1					MIC	1.5 µg/mL
S=C1SCN(c2ccc(Br)cc2)CN1c1ccc2[nH]c(=S)sc2c1	12.5 µg/mL		H37Rv	BACTEC	inhibition	7%
COc1cc(-c2nnnn2S(=O)(=O)c2ccc(F)cc2)ccc1OCC(O)(Cn1cncn1)c1ccc(Cl)cc1Cl			H37Rv	resazurin	MIC100	6.25 µg/mL
O=C1C=CC(O)(c2cc3ccccc3o2)C=C1			H37Rv		EC50	<6.25 µg/mL
CCCCCCCCO[C@H]1O[C@H](CO)[C@@H](O[C@H]2O[C@H](CO)[C@@H](OC)[C@@H]2O)[C@@H]1O	6.25 µg/mL		H37Rv		inhibition	14%
CCOC(=O)SCC			H37Rv		MIC	>100 µg/mL
CN1CCN(C(=S)N(C(=O)c2ccco2)c2ccccc2)CC1	12.5 µg/mL		H37Rv	BACTEC	inhibition	15%
O=C1C=C(Nc2ccc(S(=O)(=O)Nc3ccc(S(=O)(=O)c4ccc(NC5=CC(=O)c6ccccc6C5=O)cc4)cc3)cc2)C(=O)c2ccccc21					MIC	2 µg/mL
COCCN1OCC(N)C1=O					MIC	>2500 µM
N[C@@H](CSCSC[C@H](N)C(=O)O)C(=O)O			H37Rv	BACTEC	MIC bound	>12.5 µg/mL
CC1=NN(C(=O)c2ccncc2)C(O)(C(F)(F)F)C1			RGH102		MIC	366.3 µM
O=c1[nH]c(=O)n([C@@H]2O[C@H](CO)[C@@H](O)[C@H]2O)cc1[N+](=O)[O-]			H37Rv	resazurin	MIC bound	>6.25 µg/mL
COC(=O)c1ccc(NS(=O)(=O)c2ccc(NC3=CC(=O)c4ccccc4C3=O)cc2)cc1					MIC	2 µg/mL
S=C(SCc1ccc(Cl)cc1)N1CCN(C(=S)SCc2ccc(Cl)cc2)CC1			H37Rv	BACTEC	MIC bound	>128 µg/mL
Cc1ccc(C2=NN(C(=O)c3ccncc3)C(O)(C(Cl)(Cl)Cl)C2)cc1			RGH104		MIC	252 µM
O=C1COc2cc(NC(=S)Nc3ccccc3)ccc2N1	12.5 µg/mL		H37Rv	BACTEC	inhibition	-8%
CCCC/C=C/CCCCCCCCCCCCCc1c(OC(C)=O)c(OC(C)=O)c(C)c(OC(C)=O)c1OC(C)=O			MDR	BACTEC	MIC	40 µg/mL
O=C1C(Cl)=C(Nc2ccc3c(c2NC2=C(Cl)C(=O)c4ccccc4C2=O)C(=O)c2ccccc2C3=O)C(=O)c2ccccc21	12.5 µg/mL		H37Rv	BACTEC	inhibition	99%
COc1ccc(C/C=N/O)cc1			BCG		MIC	>100 µg/mL
CCCCCCCCO[C@H]1O[C@H](CO)[C@@H](O[C@H]2O[C@H](CO)[C@@H](N=[N+]=[N-])[C@@H]2O)[C@@H]1O	6.25 µg/mL		H37Rv		inhibition	17%
[N-]=[N+]=Nc1ccccc1C(=O)NC(=O)Nc1ccccc1			H37Rv	BACTEC	MIC bound	>12.5 µg/mL
CN(C)CCCN1c2ccccc2Sc2ccc(Cl)cc21			H37Rv		MBC	10–20 µg/mL
Cc1ccn2nc(S(=O)(=O)Nc3c(Br)ccc4cccnc34)nc2n1		INH RIF resistant	M22	visual reading	MIC50	0.5 µM
CCSC[C@H](N)C(=O)O			H37Rv		MIC	>100 µg/mL
Cc1cc(S(=O)(=O)Nc2nnc3c4ccccc4cnn23)c(S)cc1Cl			H37Rv	BACTEC	MIC bound	>12.5 µg/mL
O=C(NCc1ccc(F)cc1)c1nnc(-c2ccccn2)[nH]c1=O			H37Rv		MIC	>32 µg/mL

For reference, 9 entries again:

compound	tested at	mutations	strain	method	endpoint	result
Nc1ncnc2c1c(-c1cccc3c1oc1ccccc13)cn2[C@@H]1O[C@H](CO)[C@@H](O)[C@H]1O			Praha 131	broth dilution	MIC	16 µM
Nc1ccc(S(=O)(=O)c2ccc(NC3=CC(=O)c4ccccc4C3=O)cc2)cc1					MIC	1.5 µg/mL
CNn1cc(C(=O)O)c(=O)c2cc(F)c(N3CCN(C)CC3)cc21			22 isolates		MIC50	4 µg/mL
COC(=O)CN1OCC(N)C1=O					MIC	>2500 µM
CCCCCCCCO[C@H]1O[C@H](CO)[C@@H](O[C@H]2O[C@H](CO)[C@@H](N=[N+]=[N-])[C@@H]2O)[C@@H]1O	6.25 µg/mL		H37Rv		inhibition	17%
CC1=NN(C(=O)c2ccncc2)C(O)(C(F)(F)F)C1			RGH102		MIC	366.3 µM
NC(CCP(=O)(O)CCC1C=CC=CC1)C(=O)O	12.5 µg/mL		H37Rv	BACTEC	inhibition	22%
S=c1sc(-c2ccccc2)nc2ccccc12			H37Rv	BACTEC	MIC bound	>12.5 µg/mL
CO[C@H]1/C=C/O[C@@]2(C)Oc3c(C)c(O)c4c(=O)c(c5oc6cc(N7CCN(C(C)C)CC7)cc(=O)c6nc5c4c3=C2O)NC(=O)/C(C)=C\C=C\[C@H](C)[C@H](O)[C@@H](C)[C@@H](O)[C@@H](C)[C@H](OC(C)=O)[C@@H]1C			20 strains		MIC90	0.07 µg/mL